Changes are numbered by the printed parent chain.
B1: scFv variant JS 1 (scFv, V domains shown)
VH: QVQLVQSGGGVVQPGSSLRLSCEASGFAIGDNALNWVRQAPGKGLEWVGYIRSNSYGGTAEYAASVKGRFTISRDESKNIAYLEMNSLRAEDTAVYYCARRAHYYGDSTYNPSWYFDLWGRGTPVTVSS
VL: EIVLTQSPSFLSASVGDRVTITCRASQDVSRRLAWYQRKPGKAPKLLIYGVSNLASGVPSRFTGSGSGTEFTLTISSLQSDDFATYYCQQGYSSPRTFGQGTKVDIK
B2: scFv variant JS 2 (scFv, V domains shown)
VH: B1 VH with G49D, D107G, R121H
VL: B1 VL with S12F, V29I, V51A
B3: scFv variant JS 3 (scFv, V domains shown)
VH: B1 VH with D31G, D107G
VL: B1 VL with V29I, Y49F, V51A, G57R, S93G
B4: scFv variant JS 4 (scFv, V domains shown)
VH: B1 VH with Y82C, D107G
VL: B1 VL with S14F, V29I, R31G, P40L, V51A

biological target: T1, COVID-19-RBD-GST (SARS-CoV-2 (COVID-19 virus), wild type); assay: flow cytometry, variant on spheroplasts, 50 nM COVID-19 RBD-Alexa 488 antigen
T1 construct: also called dimeric RBD fused with a GST tag; COVID-19-RBD-GST-Alexa488 probe

Binder	binding result
B1	binds
B2	binds
B3	binds
B4	binds
